Laboratory results reported in ChEMBL document CHEMBL4007391, “Tackling Fungal Resistance by Biofilm Inhibitors” (J Med Chem, 2017).

Test system: Candida albicans
Experiment: Antibiofilm activity against Candida albicans SC5314 after 24 hrs by XTT assay
Type: functional

CCN(CCO)CCO.Oc1c(Cl)c(Cl)c(Cl)c(Cl)c1Cl
IC50: 2.86 µM
